The values below are quoted from earlier work in publication PMC9862026, “In Vivo Toxicity, Redox-Modulating Capacity and Intestinal Permeability of Novel Aroylhydrazone Derivatives as Anti-Tuberculosis Agents” (Pharmaceutics, 2022).

The structures appear in SMILES notation. Like-named read-outs stand apart in the source and are kept apart here.

The test system of the data set is HEK-293T. The note with it: HEK-293T vs M. tuberculosis MIC, cited from earlier work.

For the compound `COc1ccc2[nH]cc(C=NNC(=O)c3ccco3)c2c1` [3b, N′-[(5-methoxy-1H-indol-3-yl)methylidene]furan-2-carbohydrazide], the “SI (selective index)” value (ref [22]) is given as 633.49.
`COc1cc(C=NNC(=O)c2snnc2C)ccc1O` [3a, N′-[(4-hydroxy-3-methoxyphenyl)methylidene]-4-methyl-1,2,3-thiadiazole-5-carbohydrazide]: the “SI (selective index)” value (ref [23]) was 3516.
